This note sets out measurements from article PMC9082315 (Frontiers in Immunology, 2022).

Experiment [1] addresses monomeric SARS-CoV-2 RBD with Flag peptide and 8xHis-tag (RBD-FH) (SARS-CoV-2, WA1 (Wuhan-like), UniProt P0DTC2). Description: SPR. Conditions: both partners purified.
Experiment [2] has as its target monomeric SARS-CoV-2 RBD (S residues 332-534) with Flag peptide and 8xHis-tag (SARS-CoV-2, WA1 (Wuhan-like), UniProt P0DTC2, biotin (only in the flow cytometry on bacteria)). Kind of experiment: SPR. As to conditions: both partners purified.

B1: 1.16 Nb (VHH)
VHH: QVQLVESGGGSVQAGGSLRLSCAASGNTSKRKCVGWFRRAPGKEREGVTLIYTVGGSTVYADSVKGRFTISQDNAKDTVYLQMNSLKPEDSAMYYCAAESWGRQCNLETHRFTFWGQGTQVTVSS
The koff is the rate constant with which the complex falls apart. A higher koff goes with fast dissociation. For orientation: kon means a measure of how fast the partners come together. Regarding B1, in experiment [1], the koff is 0.00705 s⁻¹ and the kon amounted to 1.96e+06 M⁻¹ s⁻¹.

B2: 2.15 Nb (VHH)
VHH: QVQLVESGGGSVQAGGSLKLSCAASGYASWARKCIGWFRQAPGQEREGVAAIFDFDGSTYYSDSVKGRFTISGDNAKNTVSLQMNSLLPKDTAVYYCTVAFGTCDNWYRGRGDYWGQGTQVTVSS
B2: in experiment [1], the koff is 0.000778 s⁻¹ and the kon worked out at 2.02e+06 M⁻¹ s⁻¹.

B3: Nb 2.15, monomeric nanobody (VHH)
VHH: QVQLVESGGGSVQAGGSLKLSCAASGYASWARKCIGWFRQAPGQEREGVAAIFDFDGSTYYSDSVKGRFTISGDNAKNTVSLQMNSLLPKDTAVYYCTVAFGTCDNWYRGRGDYWGQGTQVTVSS
In general, Kd refers to the concentration at which binding is half-saturated. The low end stands for tighter binding, the high end for weaker binding. Turning to B3, in experiment [2], the Kd is around 0.3 nM.

B4: 2.11 Nb (VHH)
VHH: QVQLVESGGGSVQAGGSLRLSCAASGDASNRKCVSWFRRAPGKEREGVALIFPVGSSTAYADSVKGRFTISQDSAKDTVYLQMNNLKPEDSGTYYCAAVSWGGRCNLETQTVTFWGQGTQVTVSS
In experiment [1], B4 yielded a koff of 0.00497 s⁻¹ and a kon of 2.29e+06 M⁻¹ s⁻¹.

B5: 2.1 Nb (VHH)
VHH: QVQLVESGGGSVQAGGSLRLSCAAFGATISSAHMGWFRQAPGKEREGVAFRYTDGSSTYYTTSVRGRFTISQDNAKNTVYLQMNSLKPEDTAMYYCASNPSWGRLVGGQYNNWGQGTQITVSS
In the case of B5, in experiment [1], the koff came out at 0.00233 s⁻¹ and the kon was determined as 1.34e+06 M⁻¹ s⁻¹.
